In EP4821928A1, “BICYCLIC HETEROCYCLIC COMPOUND AND FUNGICIDE FOR AGRICULTURAL AND HORTICULTURAL USE CONTAINING SAME AS ACTIVE INGREDIENT” (dated 2026):

What was measured:
[1] = test system: Gray mold fungus (Botrytis cinerea); experiment: Gray mold anti-germ test (Test Example C); conditions: for Gray mold anti-germ test (rate of inhibition): 50 ppm/well, Czapek-dox broth, 25°C for 3 days, absorbance 600 nm
[2] = test system: Fusarium blight fungus (Fusarium graminearum); experiment: Fusarium blight anti-germ test (Test Example D); conditions: for Fusarium blight anti-germ test (rate of inhibition): 50 ppm/well, Czapek-dox broth, 25°C for 3 days, absorbance 600 nm
[3] = test system: Speckled leaf blotch fungus (Septoria tritici); experiment: Speckled leaf blotch anti-germ test (Test Example F); conditions: for Speckled leaf blotch anti-germ test (rate of inhibition): 50 ppm/well, Czapek-dox broth, 25°C for 3 days, absorbance 600 nm
[4] = test system: Anthracnose fungus (Glomerella cingulata); experiment: Anthracnose anti-germ test (Test Example E); conditions: for Anthracnose anti-germ test (rate of inhibition): 50 ppm/well, Czapek-dox broth, 25°C for 3 days, absorbance 600 nm
[5] = test system: Magnaporthe grisea; experiment: Rice blast disease pot test (Test Example A); conditions: for Rice blast disease pot test (control value): 250 ppm sprayed, 2.5 ml/pot, rice variety Sachikaze, degree of disease development 6 to 8 days after inoculation
[6] = test system: Botrytis cinerea; experiment: Tomato gray mold pot test (Test Example B); conditions: for Tomato gray mold pot test (control value): 250 ppm sprayed, 2.5 ml/pot, tomato variety Oogata Fukuju, degree of disease development 2 to 3 days after inoculation

| SMILES | Gray mold anti-germ test (rate of inhibition) [1] | Fusarium blight anti-germ test (rate of inhibition) [2] | Speckled leaf blotch anti-germ test (rate of inhibition) [3] | Anthracnose anti-germ test (rate of inhibition) [4] | Rice blast disease pot test (control value) [5] | Tomato gray mold pot test (control value) [6] | rate of inhibition ([1]; Test Example C, gray mold anti-germ test) | rate of inhibition ([2]; Test Example D, Fusarium blight anti-germ test) | rate of inhibition ([3]; Test Example F, speckled leaf blotch anti-germ test) | rate of inhibition ([4]; Test Example E, anthracnose anti-germ test) | control value ([5]; Test Example A, rice blast disease pot test) | control value ([6]; Test Example B, tomato gray mold pot test) |
| --- | --- | --- | --- | --- | --- | --- | --- | --- | --- | --- | --- | --- |
| CCCC1(C)N=C(n2cnc3c(Cl)cccc32)c2cccc(C)c2O1 (stereo not drawn) | H (H represents a control value or rate of inhibition of larger than 50%) | L (L represents a control value or rate of inhibition of 50% or less) | L (L represents a control value or rate of inhibition of 50% or less) | H (H represents a control value or rate of inhibition of larger than 50%) | H (H represents a control value or rate of inhibition of larger than 50%) | H (H represents a control value or rate of inhibition of larger than 50%) | – | – | – | – | – | – |
| Cc1cccc2c1OC(C)(C)N=C2n1cnc2c(C)cccc21 | H (H represents a control value or rate of inhibition of larger than 50%) | H (H represents a control value or rate of inhibition of larger than 50%) | H (H represents a control value or rate of inhibition of larger than 50%) | H (H represents a control value or rate of inhibition of larger than 50%) | H (H represents a control value or rate of inhibition of larger than 50%) | H (H represents a control value or rate of inhibition of larger than 50%) | – | – | – | – | – | – |
| COc1cccc2c1ncn2C1=NC(C)(C)Oc2cc(Br)ccc21 | H (H represents a control value or rate of inhibition of larger than 50%) | H (H represents a control value or rate of inhibition of larger than 50%) | H (H represents a control value or rate of inhibition of larger than 50%) | H (H represents a control value or rate of inhibition of larger than 50%) | L (L represents a control value or rate of inhibition of 50% or less) | L (L represents a control value or rate of inhibition of 50% or less) | – | – | – | – | – | – |
| Cc1cccc2c1ncn2C1=NC(C)(C)Sc2cc(F)ccc21 | H (H represents a control value or rate of inhibition of larger than 50%) | L (L represents a control value or rate of inhibition of 50% or less) | L (L represents a control value or rate of inhibition of 50% or less) | H (H represents a control value or rate of inhibition of larger than 50%) | H (H represents a control value or rate of inhibition of larger than 50%) | H (H represents a control value or rate of inhibition of larger than 50%) | – | – | – | – | – | – |
| COCC1(C)N=C(c2cnn3c(C)c(C)ccc23)c2ccc(C)cc2O1 (stereo not drawn) | H (H represents a control value or rate of inhibition of larger than 50%) | H (H represents a control value or rate of inhibition of larger than 50%) | H (H represents a control value or rate of inhibition of larger than 50%) | H (H represents a control value or rate of inhibition of larger than 50%) | H (H represents a control value or rate of inhibition of larger than 50%) | H (H represents a control value or rate of inhibition of larger than 50%) | – | – | – | – | – | – |
| Cc1cccc2c1OC1(CCCC1)N=C2n1cnc2c(C)c(C)ccc21 | H (H represents a control value or rate of inhibition of larger than 50%) | L (L represents a control value or rate of inhibition of 50% or less) | L (L represents a control value or rate of inhibition of 50% or less) | H (H represents a control value or rate of inhibition of larger than 50%) | H (H represents a control value or rate of inhibition of larger than 50%) | H (H represents a control value or rate of inhibition of larger than 50%) | – | – | – | – | – | – |
| Cc1c(Cl)ccc2c1ncn2C1=NC(C)(C)Oc2cc(Br)ccc21 | L (L represents a control value or rate of inhibition of 50% or less) | L (L represents a control value or rate of inhibition of 50% or less) | L (L represents a control value or rate of inhibition of 50% or less) | L (L represents a control value or rate of inhibition of 50% or less) | L (L represents a control value or rate of inhibition of 50% or less) | L (L represents a control value or rate of inhibition of 50% or less) | – | – | – | – | – | – |
| Cc1c(Cl)ccc2c1ncn2C1=NC(C)(C)Oc2c(F)cccc21 | H (H represents a control value or rate of inhibition of larger than 50%) | L (L represents a control value or rate of inhibition of 50% or less) | L (L represents a control value or rate of inhibition of 50% or less) | H (H represents a control value or rate of inhibition of larger than 50%) | L (L represents a control value or rate of inhibition of 50% or less) | L (L represents a control value or rate of inhibition of 50% or less) | – | – | – | – | – | – |
| CCCCC1(C)N=C(c2cnn3c(C)c(C)ccc23)c2ccccc2S1 (stereo not drawn) | H (H represents a control value or rate of inhibition of larger than 50%) | H (H represents a control value or rate of inhibition of larger than 50%) | H (H represents a control value or rate of inhibition of larger than 50%) | H (H represents a control value or rate of inhibition of larger than 50%) | H (H represents a control value or rate of inhibition of larger than 50%) | H (H represents a control value or rate of inhibition of larger than 50%) | – | – | – | – | – | – |
| Cc1cccc2c1OC(C)(C)N=C2n1cnc2ccccc21 | H (H represents a control value or rate of inhibition of larger than 50%) | L (L represents a control value or rate of inhibition of 50% or less) | L (L represents a control value or rate of inhibition of 50% or less) | H (H represents a control value or rate of inhibition of larger than 50%) | H (H represents a control value or rate of inhibition of larger than 50%) | H (H represents a control value or rate of inhibition of larger than 50%) | – | – | – | – | – | – |
| CCOCC1(C)N=C(c2cnn3ccnc(C)c23)c2ccccc2O1 (stereo not drawn) | – | – | – | – | – | – | L (L represents a control value or rate of inhibition of 50% or less) | L (L represents a control value or rate of inhibition of 50% or less) | H (H represents a control value or rate of inhibition of larger than 50%) | L (L represents a control value or rate of inhibition of 50% or less) | L (L represents a control value or rate of inhibition of 50% or less) | L (L represents a control value or rate of inhibition of 50% or less) |
| Cc1ccc2c(ncn2C2=NC(C)(C)[S+]([O-])c3cc(F)ccc32)c1C (stereo not drawn) | H (H represents a control value or rate of inhibition of larger than 50%) | H (H represents a control value or rate of inhibition of larger than 50%) | L (L represents a control value or rate of inhibition of 50% or less) | H (H represents a control value or rate of inhibition of larger than 50%) | H (H represents a control value or rate of inhibition of larger than 50%) | H (H represents a control value or rate of inhibition of larger than 50%) | – | – | – | – | – | – |
| CC1(C)N=C(n2cnc3c(Cl)cccc32)c2ccc(Br)cc2O1 | L (L represents a control value or rate of inhibition of 50% or less) | L (L represents a control value or rate of inhibition of 50% or less) | L (L represents a control value or rate of inhibition of 50% or less) | L (L represents a control value or rate of inhibition of 50% or less) | H (H represents a control value or rate of inhibition of larger than 50%) | L (L represents a control value or rate of inhibition of 50% or less) | – | – | – | – | – | – |
| Cc1c(Br)ccc2c1ncn2C1=NC(C)(C)S(=O)(=O)c2ccccc21 | H (H represents a control value or rate of inhibition of larger than 50%) | H (H represents a control value or rate of inhibition of larger than 50%) | L (L represents a control value or rate of inhibition of 50% or less) | H (H represents a control value or rate of inhibition of larger than 50%) | L (L represents a control value or rate of inhibition of 50% or less) | H (H represents a control value or rate of inhibition of larger than 50%) | – | – | – | – | – | – |
